From PMC8255378
For at least one entry, the source does not settle the construct or the ends of the probe. At least one verdict rests on a figure or table, not on a statement of the authors.

Molecular target: SdiA (His-SdiA) (UniProt A6TB66)
Assay: EMSA
Details: 10 pmol SdiA, 2 or 4 uM C8-HSL (no apparent effect); 10 mM Tris-HCl pH 8.0, 50 mM KCl, 1 mM DTT, 0.1 mM EDTA, 2.5 mM MgCl2, 2% glycerol, 40 uL, 50 ng DNA, 37 C 30 min; 2% agarose or 6% native polyacrylamide gel; recombinant protein; residues 1-228; probe letters rebuilt from the primers and the genome

Sequence	binding result
GAAAACTGTGCAGAGCCGGCAGCCGGACCACTCGGCTGAAATCTGAAATGCCTGGAAGGCACAACGGCTGCCAATCCGGTTCGTTATTTCGACATCGTTCAAAGGAAAACAGTATGAAAATCAAAACACTGGCAATGATTGTTGTGTCAGCCCTGTCACTGAGCTCCACGGCAGCTCTGGCCGATACCACCACGGTCAAC (double strand) [fimA promoter]	binds
TCAGCGCTAAGTTGACTGAATGCCGCTTCCACCAGCGAACGGCGGGTTTTTTCTTTTTGTTGTGCTCTTACGCCCATCACGATGTATGAATCCTTCCAATAGCCCTGCTGGCACTATACCAGAGATTAAAACTAATCGGTTTGCCCTGGATTGTGAATGATTGTTTACGAGCCGTTTCTGCTTTTATGCTGCAAAAAAGCACAACGATAATTGGGTTAAAGCGCAGCGAATGTTATCATCGTGTTTATTTTATGTATAAAACAGGTGAGTAATGCCATGTCACACTCTTGGGATTA (double strand) [ftsQ promoter]	binds
CTTCCATTCGGGTATGGTCGACTGTGAAACTATCTAACAACGGCATTCGTCACCTCCGGGAGTGAATTTTTTTAAAATAAAATGAACTCTTTGTTCAGCCGCGAGTCTCAGTATATGAAAGACGCGCATTTATTATCATCATCATCCCTGAATCAGAGATGAAAGTTTGGCCACAGTGATGTGGCCTTTTTCTTTTCCAGCGCTACGCGTGCCGCGCCAGCAGCGCCTCAAACGGCTCGCTGTCTTCAGCTTCCACTTTCTTCTGTCGCGCCACCGACGCGTCGCGCTCGGCGATAAAATCGTCTTCGCTCAGGATCTCCAGCGGCTCTT (double strand) [luxS promoter]	binds
